Data as given in PubChem BioAssay AID504761 (Drosophila RNAi Screening Center, 2011)
Aim: 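Fly genes whose silencing reduces dengue virus type 2 infection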 (primary screen). System: D.Mel-2 cells from Drosophila. Reagent: long dsRNA against Drosophila genes. Conditions: infection with dengue virus type 2; dose and infection time not stated. Measured: 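Cells stained for dengue envelope protein and imaged; percent of infected cells per well on duplicate plates, ranked by infection, with stained nuclei counted for cell number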. Reading the numbers: infection score: higher = more virus-infected cells. Hit rule: 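Low infection ranks in the two replicates (chance level up to 0.065) followed by a retest with a 1.5-fold or larger significant decrease, p below 0.05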. Calls: active = confirmed: knock-down lowers infection; inactive = not picked or not confirmed.
The screen tested about 22,000 reagents; shown is an unselected part of those with a known target gene and a result. In the full data, 116 (0.52%) got an active call. 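Calls depend on retest data that are not deposited; infection was ranked per plate without normalising between plates; the unit of the infection score is not given.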 Entries without a mark were called inactive. The numbers tell different reagents against one gene apart. Further read-outs or replicates are left out here. Not given: the amount of reagent, the time to read-out.

CG12861 (GeneID 36628) #1 scored infection score, replicate 1 = 14.4. Against CG12861 (GeneID 36628) #2 the deposit lists infection score, replicate 1 = 5.17. CG12861 (GeneID 36628) #3 scored infection score, replicate 1 = 11.6. With knock-down of EndoU (GeneID 41931), the record shows infection score, replicate 1 = 18.3. With knock-down of CG10031 (GeneID 33594), the screen gave infection score, replicate 1 = 3.68. RpL26 (GeneID 40060) gave infection score, replicate 1 = 3.16.

Against Cp7Fc (GeneID 31786) #1 the deposit lists infection score, replicate 1 = 0.36. Silencing of Cp7Fc (GeneID 31786) #2 gave: infection score, replicate 1 = 18.6. With knock-down of Pgant2 (GeneID 33556), the screen gave infection score, replicate 1 = 5.51.

Quoted from above, 3 entries:
CG12861 (GeneID 36628) #2 — infection score, replicate 1: 5.17
CG12861 (GeneID 36628) #3 — infection score, replicate 1: 11.6
EndoU (GeneID 41931) — infection score, replicate 1: 18.3

Further results:
CG13039 (GeneID 39805) scored infection score, replicate 1 = 13.8. After knock-down of CG18266 (GeneID 33792) the results were infection score, replicate 1 = 7.6. Silencing of ste24a (GeneID 36908) #1 resulted in: infection score, replicate 1 = 12.2. With knock-down of ste24a (GeneID 36908) #2, the record shows infection score, replicate 1 = 1.92. Against CG32054 (GeneID 326185) #1, the entry reads infection score, replicate 1 = 4.28. Knock-down of CG32054 (GeneID 326185) #2 came out at: infection score, replicate 1 = 5.54.

Depletion of Ist1 (GeneID 38750) #1 came out at: infection score, replicate 1 = 4.88. After knock-down of Ist1 (GeneID 38750) #2 the results were infection score, replicate 1 = 13.7. For daw (GeneID 33474) #1, the entry reads infection score, replicate 1 = 5.04. Against daw (GeneID 33474) #2, the entry reads infection score, replicate 1 = 2.26. Silencing of CG13223 (GeneID 36190) gave: infection score, replicate 1 = 16.9. Against Tk (GeneID 41456) #1 the deposit lists infection score, replicate 1 = 3.77.

Depletion of Tk (GeneID 41456) #2 gave: infection score, replicate 1 = 2.02. Against Tk (GeneID 41456) #3 the deposit lists infection score, replicate 1 = 10.4.
